Key:
[1] = molecular target: Bat CoV RaTG13 (SC2r-CoV RaTG13 (bat))
[2] = molecular target: SARS-CoV-2 Beta (SARS-CoV-2 B.1.351 (Beta))
[3] = molecular target: SARS-CoV-2 Omicron BA.2 (SARS-CoV-2 Omicron BA.2)
[4] = molecular target: SARS-CoV-2 Alpha (SARS-CoV-2 B.1.1.7 (Alpha))

With CR3022 the IC50 [1] was 0.437 µg/mL.
Substance LyCoV-1404 has an IC50 [2] of 0.079 µg/mL and an IC50 [3] of 0.344 µg/mL.
With S2X259 the IC50 [4] was 0.106 µg/mL.

— patent publication US20240254204A1
